B1: V1WT_06 IgG (antibody, V domains shown)
VH: EVQLVQSGAEVKKPGASVKVSCKASGYTFSSHGISWVRQAPGQGLEWMGWISTYNGNTNSAQNLQGRVTMTADTSTSTAYMELRSLRSDDTAVYYCARGPWGYCSGTSCYYWTPDNPAYSYHGMDVWGQGTTVTVSS
VL: not shown
notes: copies: 2 + 2
B2: V1WT_41 IgG (antibody, V domains shown)
VH: QVQLQESGPGLVKPSETVSVTCTVSGGSITRSNYYWGWIRQPPGKGLEWIGSIFYNGNTNYNPSLKSRLTISVDTSKNQFSLKLSSVTAADTAVYYCARTAPYYYDRSGYYQKEEYFQRWGQGTLVTVSS
VL: EIVMTQSPSTLSASVGDRVTITCRASQSISTWLAWYQQKPGKAPNLLIYQASSLESGVPSRFSGSGSGTEFTLTISSLQPDDFATYYCQQYNNYPRTFGQGTKLEIK
notes: copies: 2 + 2
B3: VA14_26 IgG (antibody, V domains shown)
VH: QVQLQQWGAGLLKPSDTLSLTCGISGGPFSGYYWSWIRQPPGKGLEWLGEINHSGITTYNPSLKSRGTISVDTSKRQISLKLASVTAADTAVYYCARFAYGDYGWDYSSDMDVWGKGTTVTVSS
VL: DIQLTQSPSTLSASVGDRVTITCRASQSISTWLAWHQQIPGKAPKLLIYRASTLQSGVPSRFSGSGSGTEFTLTISSLQPDDFATYYCQQYYSVRTFGQGTKVDIK
notes: copies: 2 + 2

Target: WIV-1 RBD (recombinant receptor binding domain of Spike) (bat sarbecovirus WIV-1, UniProt U5WI05)
Settings: both partners purified

Row | Binder | fold increase in binding by ELISA, IgG over Fab | binding result
1 | B1 | 6.3 fold | 
2 | B2 |  | binds
3 | B3 |  | binds
